Data taken from publication PMC6340165, “A GntR Family Transcription Factor in Streptococcus mutans Regulates Biofilm Formation and Expression of Multiple Sugar Transporter Genes”.

Target: T1, StsR (GntR family regulator) (Streptococcus mutans UA159) (UniProt Q8DTX4)
T1 sequence: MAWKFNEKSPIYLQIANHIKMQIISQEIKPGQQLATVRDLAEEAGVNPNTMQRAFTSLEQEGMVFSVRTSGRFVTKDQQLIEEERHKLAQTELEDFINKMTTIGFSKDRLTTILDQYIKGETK
Assay: EMSA
Details: 20 pmol DNA, 20-40 pmol StsR; 50 mM Tris/HCl, 10 mM NaCl, 0.1 mM EDTA, 5% glycerol, 30 min, 10 uL; 4% native PAGE in 0.5x TBS; recombinant protein; residues 1-123; protein details: His6 (pET28a); probe letters rebuilt from the primers and the genome

Sequence: CTCCGTAGAGATTATCTCCATCCATAATACCAATATGCGAATAGCCCATCTCCTTAGCTTTCTTAATATAAGATTTTAAGTCAATCAGGCTATCCATAAAACTATAAACGGTTTTAGTATCTAATTGTGCAAACACTTCTGTCTCCTTAAGATCTACTTACTTTTATTATACTACAAATCCTTAAAATCCTCTTACTCTTTCATTTAATTCTACTAAATCTCATCAGTCTAAATTTACCACTTGACAATATTTTACTATAATTGTATTATATATATAACACAATTATACACTGCACTTTAGAAAGGAGAAAAAATGGCT (double strand) [stsR promoter]
- binding result: binds
